Measured values reported in article PMC9637222 (2022).

Assays:
[1] = target: SicA K27A (tag-free, purified) (S. Typhimurium, UniProt P69066 1-165, K27A); experiment: ITC
[2] = target: SicA N70A (tag-free, purified) (S. Typhimurium, UniProt P69066 1-165, N70A); experiment: ITC

B1: SipB (tag-free, purified) (natural protein)
chain: MVNDASSISRSGYTQNPRLAEAAFEGVRKNTDFLKAADKAFKDVVATKAGDLKAGTKSGESAINTVGLKPPTDAAREKLSSEGQLTLLLGKLMTLLGDVSLSQLESRLAVWQAMIESQKEMGIQVSKEFQTALGEAQEATDLYEASIKKTDTAKSVYDAATKKLTQAQNKLQSLDPADPGYAQAEAAVEQAGKEATEAKEALDKATDATVKAGTDAKAKAEKADNILTKFQGTANAASQNQVSQGEQDNLSNVARLTMLMAMFIEIVGKNTEESLQNDLALFNALQEGRQAEMEKKSAEFQEETRKAEETNRIMGCIGKVLGALLTIVSVVAAVFTGGASLALAAVGLAVMVADEIVKAATGVSFIQQALNPIMEHVLKPLMELIGKAITKALEGLGVDKKTAEMAGSIVGAIVAAIAMVAVIVVVAVVGKGAAAKLGNALSKMMGETIKKLVPNVLKQLAQNGSKLFTQGMQRITSGLGNVGSKMGLQTNALSKELVGNTLNKVALGMEVTNTAAQSAGGVAEGVFIKNASEALADFMLARFAMDQIQQWLKQSVEIFGENQKVTAELQKAMSSAVQQNADASRFILRQSRA
[1]
  Kd: 10 µM
[2]
  Kd: 570 nM

B2: SipC (tag-free, purified) (natural protein)
chain: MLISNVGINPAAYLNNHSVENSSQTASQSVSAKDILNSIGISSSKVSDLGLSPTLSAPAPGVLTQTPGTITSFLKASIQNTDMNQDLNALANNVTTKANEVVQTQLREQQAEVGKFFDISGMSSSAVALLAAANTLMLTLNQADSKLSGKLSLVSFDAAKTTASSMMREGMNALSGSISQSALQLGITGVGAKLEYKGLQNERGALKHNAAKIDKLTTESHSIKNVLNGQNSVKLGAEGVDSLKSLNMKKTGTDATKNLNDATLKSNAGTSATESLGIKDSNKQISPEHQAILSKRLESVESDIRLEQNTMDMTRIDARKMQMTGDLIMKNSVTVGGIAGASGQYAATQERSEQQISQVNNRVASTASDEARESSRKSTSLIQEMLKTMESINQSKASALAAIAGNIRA
[2]
  Kd: 550 nM
